Among the data in US20230227538A1 are Kd values, retold here.

The target in this assay is SARS-CoV-2 Spike ectodomain, stabilized prefusion trimer (spike ECD, Spike^S2P) (SARS-CoV-2). Kind of assay: spike ECD-ACE2 binding assay (FIG. 2C).

“ACE2 as used in the spike ECD-ACE2 binding assay of FIG. 2C (from UniProt Q9BYF1 18-740) (receptor)” came in with a Kd of 44 nM.
